Laboratory results as given in patent publication US5519028A, “Antiviral preparations” (priority 1992, dated 1996).

System: HIV-1
Conditions: human, pbmc

For `CCc1ccc2c3[nH]c4ccccc4c3cc[n+]2c1` [flavopereirine], the “total-inhibition concentration weaker than cytotoxic concentrations” value was 2-4 times.
